From PMC3546862, “Assessing the utility of an anti-malarial pharmacokinetic-pharmacodynamic model for aiding drug clinical development” (Malaria Journal, 2012)

Experiment: Scalar for adjusting in vitro IC50 to whole blood
Settings: (100 - BM)/100 x 100/(100 - HPPB) x HWB

First: CO[C@H]1O[C@@H]2O[C@@]3(C)CC[C@H]4[C@H](C)CC[C@@H]([C@H]1C)[C@@]24OO3 [ART, artemether]
Second: Clc1ccc2c(N3CCN(CCCN4CCN(c5ccnc6cc(Cl)ccc56)CC4)CC3)ccnc2c1 [PQ, piperaquine]
The “Scalar (adjusted)” value of the first is higher: 1.66 for the first, 1.22 for the second.

With `CCCCN(CCCC)CC(O)c1cc(Cl)cc2c1-c1ccc(Cl)cc1/C2=C/c1ccc(Cl)cc1` (stereo not drawn) [LF, lumefantrine] the “Scalar (adjusted)” value was 0.25.
